The results in this text go back to patent US11124497B1.

Protein sequences, listed by entry. Tags and fused reporters are not part of them. Residues count along the entry.
UniProt P0C6X1, 2966-3267 limits assumed: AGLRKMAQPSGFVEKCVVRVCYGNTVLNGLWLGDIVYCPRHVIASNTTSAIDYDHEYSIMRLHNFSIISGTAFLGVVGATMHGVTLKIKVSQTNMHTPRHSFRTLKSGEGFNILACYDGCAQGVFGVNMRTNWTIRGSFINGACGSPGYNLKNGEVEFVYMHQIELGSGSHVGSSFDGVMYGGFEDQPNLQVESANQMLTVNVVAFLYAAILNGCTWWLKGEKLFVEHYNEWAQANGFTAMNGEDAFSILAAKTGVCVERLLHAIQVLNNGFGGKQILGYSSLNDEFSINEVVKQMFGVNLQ

A value given as a limit tells only on which side of the number the result lay.

The target of assay [1] is SARS-COV2 Mpro (Severe acute respiratory syndrome coronavirus 2 (2019-nCoV) (SARS-CoV-2), UniProt P0DTD1). The assay is described as follows: COVID-19. Type of assay: biochemical. The conditions noted are these: read-out: Sars CoV2 mPRO IC50; 25 nM Mpro, 25 μM substrate.
Assay [2] addresses 229E mPRO (Human coronavirus 229E (HCoV-229E), UniProt P0C6X1). The assay is described as follows: 229E mPRO enzymatic assay. Type of assay: biochemical, Human Coronavirus (HCov) 229E. As to conditions: read-out: 229E mPRO IC50.

In the case of `N#CC(CC1CCCNC1=O)NC(=O)C1CC2(CCCCC2)CN1C(=O)c1cc2ccc(Cl)cc2[nH]1` (single isomer, unassigned), the IC50 (commonly the concentration that inhibits the measured activity by half) in assay [1] was < 22 µM.
Turning to `N#C[C@H](C[C@@H]1CCCNC1=O)NC(=O)C1CC2(CN1C(=O)c1cc3cccc(Cl)c3[nH]1)CC(F)(F)C2` (single isomer, unassigned), the IC50 in assay [2] and in assay [1] was < 22 µM in each case.
